{"source": "paper PMC5437231", "biological_target": "DC4-2.J41.gp41(BG505) Env (HIV-1 clade C, strain 4-2.J41 | HIV-1 clade A, strain BG505)", "data": [{"substance": "soluble CD4 (from UniProt P01730 26-396) (receptor)", "values": [{"measurement": "IP with 447-52D or 17b and Western blot after incubation with sCD4 (1x, 5x, 20x molar): excess of sCD4 needed to expose V3 and bridging sheet epitopes", "result": 20, "unit": "M excess"}]}]}
